Source: US20110300168A1, “COMPOSITIONS AND METHODS FOR INDUCING AN IMMUNE RESPONSE AGAINST INFLUENZA ANTIGENS” (THE JOHNS HOPKINS UNIVERSITY, priority 2010, published 2011)

Key:
Format in all cases: cell-based, human
CD8+ T cells [1] = settings: control donors aged 21-42, wk 0 directly ex vivo, peptide pulsed T2 cells 1:1; positive if SFC greater than 5 per 100000 CD8+ T cells, p<0.05
CD8+ T cells [2] = test system: CD8+ T cells
CD8+ T cells [3] = test system: CD8+ T cells; remark: listed apart in the source

## FMYSDFHFI (listed as Influenza virus) [PA46-54, subdominant influenza peptide, pool 2]
CD8+ T cells [1]
  number of donors who responded by IFNγ ELISpot: 2
CD8+ T cells [2]
  CD8+ T cells specific for the epitope by A2-Ig dimer staining: 65%
CD8+ T cells [3]; 12 control donors, aAPC assay, ICS
  control donors in whom the epitope elicited a response: majority of the donors
CD8+ T cells [3]; Donor C1, after 3 weekly aAPC stimulations, restimulated with peptide pulsed T2 cells 1:1
  CD8+ T cells specific by IFNγ expression (ICS): 8%
CD8+ T cells [3]; nine geriatric donors aged 65 and above, IFNγ ICS after 3 weeks of aAPC stimulation
  geriatric donors with CD8+ T cells responding to the epitope: Donors E2, E3, E4, and E8 responded
